From ChEMBL document CHEMBL3988442, “University of Dundee, Small-Polar-MMV Screening Library” (2021)
This is a selection; strong and weak results do not stand in their true shares.

Columns and labels:
[1] = tested on: Mycobacterium tuberculosis; design: scale not given: direction of the effect not stated beside the values; conditions: 500 µM
[2] = tested on: Mycobacterium tuberculosis; design: scale not given: direction of the effect not stated beside the values; conditions: 500 µM; remark: listed apart in the source

Work on NC(CF)c1ccc(F)cc1 (configuration not stated) yielded a Percent Effect [1] of 4.65% and a Percent Effect [2] of 12.2%.
